Publication PMC4878744, “Structure, Regulation, and Inhibition of the Quorum-Sensing Signal Integrator LuxO” (PLoS Biology, 2016)

Sequences of proteins named here, by UniProt entry; tags and fusion partners are left off. Residues count along the entry.
UniProt Q8CWJ5, 132-378 limits assumed: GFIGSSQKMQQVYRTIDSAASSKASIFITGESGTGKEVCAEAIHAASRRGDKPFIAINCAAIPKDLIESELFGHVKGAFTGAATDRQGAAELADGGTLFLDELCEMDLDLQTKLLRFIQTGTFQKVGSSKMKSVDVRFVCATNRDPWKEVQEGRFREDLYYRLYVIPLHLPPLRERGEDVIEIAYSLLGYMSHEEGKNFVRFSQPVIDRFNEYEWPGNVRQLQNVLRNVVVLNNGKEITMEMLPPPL

Target: V. vulnificus LuxO-C (Vibrio vulnificus, UniProt Q8CWJ5)
Assay: NADH-coupled ATPase assay, fit to one-inhibitor-per-oligomer model
Assay type: biochemical
Settings: competitive with ATP; 100 μM LuxO-C, 2 mM ATP, pH 7.4, 23°C, 4% DMSO; K is affinity relative to ATP (dimensionless ratio)

## CC(C)(C)COC(=O)CNc1n[nH]c(=O)nc1S
  K (Kd^ATP / Kd^inhibitor): 268 ± 186
